# Source: the supplement of paper PMC7695840
# Only a part is listed here, and it is no random draw.
# How the values were obtained:
# [1] = tested on: Staphylococcus aureus MW2 delta-mecA (mecA-); test: normalized GFP fluorescence (growth of mecA- strain) (fraction of control range); higher = more growth of mecA- strain; details: compound concentration: 150 uM; cefoxitin: subinhibitory; fluorescent label: GFP
# How it was run: (§1)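 Fluorescence from DsRed (540/590) and GFP (485/520) was recorded after 20 h of static growth at 37 °C and 90% humidity. The wells held a 1:1 mix of pre-induced S. aureus MW2 cells, gene-bearing with DsRed and gene-deleted with GFP, in LB with a daily-set subinhibitory antibiotic dose, dispensed at 5 µL/well onto 150 μM compound (1.5% DMSO) in 1536-well plates, single replicate. Each channel was scaled per plate between single-strain control medians, excluding plates with high untreated ratios and rows with DsRed/GFP >10.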
# [2] = tested on: Staphylococcus aureus MW2 (mecA+); test: normalized DsRed fluorescence (growth of mecA+ strain) (fraction of control range); higher = more growth of mecA+ strain; details: compound concentration: 150 uM; cefoxitin: subinhibitory; fluorescent label: DsRed
# How it was run: as §1
smiles,measurement,setting,value
O=P([O-])([O-])F.[Na+].[Na+],normalized GFP fluorescence,[1],0.412
same,normalized DsRed fluorescence,[2],1.11
